Measured values from several laboratories, pooled; numbers as filed in NIAID ChemDB.

Shared fields: cytotoxicity tests; cells: MT-4; endpoint: CC50

CCn: concentration that lowers growth or viability of the cells by n%.

structure	read by	result
Oc1ccccc1/C=N/Nc1nc(-c2ccc(Br)cc2)cs1	MTT	48.7 µM
Cn1c(N(Cc2ccccc2)Cc2ccccc2)c(N=Nc2ccc(Cl)cc2)c(N)nc1=O	MTT	78.59 µM
Cc1cccc(C(C)c2c(C(C)C)c(=O)[nH]c(=O)n2COCc2ccccc2)c1	MTT	34.3 µM
Cc1cn([C@H]2C[C@H](N=[N+]=[N-])[C@@H](CO)O2)c(=O)[nH]c1=O	MTT	>1 µM
CCCCCCCCCCCCCCCCOC(=O)OCOc1c2n(cc(C(=O)NCc3ccc(F)cc3F)c1=O)[C@@H]1CN(C2=O)[C@@H](C)CC[C@]12CC(C)=NO2	luminescence	50 µM
CC1(C)CC=C(c2cn(-c3nccc(C(=O)NC4CCC(N5CC6CCC(C5)O6)CC4)n3)c3ccc(F)c([C@H](OC(C)(C)C)C(=O)O)c23)CC1	luminescence	5.352 µM
CCC(O)(c1ccccc1C)c1c(C)c(=O)[nH]c(=O)n1COCc1ccccc1	MTT	163 µM
CCCCCCCCCOC(=O)OCOc1c2n(cc(C(=O)NCc3ccc(F)cc3F)c1=O)[C@@H]1CN(C2=O)[C@@H](C)CC[C@]12CC(C)=NO2	luminescence	50 µM
OC[C@H]1O[C@@H](n2nnc3c(Cl)nccc32)[C@H](O)[C@@H]1O	-	359 µM
COC(=O)[C@H](C)NP(=O)(OC[C@@H]1C=C[C@H](n2cc(CCCNC(=O)C(F)(F)F)c(=O)[nH]c2=O)O1)Oc1ccccc1	MTT	800 µM
C[C@H]1CC[C@]2(CC(c3ccccn3)=NO2)[C@H]2CN1C(=O)c1c(O)c(=O)c(C(=O)NCc3ccc(F)cc3F)cn12	luminescence	50 µM
COC1=NO[C@@]2(CC[C@H](C)N3C[C@H]2n2cc(C(=O)NCc4ccc(F)cc4F)c(=O)c(OCOC(=O)OC(C)C)c2C3=O)C1	luminescence	50 µM
CC1=NOC2(CC[C@H](C)N3C[C@H]2n2cc(C(=O)NCc4ccc(F)cc4F)c(=O)c(O)c2C3=O)N1N(C)C	luminescence	23.1 µM
Cc1cc(C)cc(S(=O)(=O)c2c(C(=O)NCCO)[nH]c3ccc(Cl)cc23)c1	MTT	85 µM
CCCOC12CS(=O)(=O)OC13[C@@H](CN2)O[C@@H](n1cc(C)c(=O)[nH]c1=O)[C@@H]3O	-	>250 µM
Nc1ncnc2c1ncn2[C@H]1CC[C@@H](CO)O1	-	>500 µM
C[C@H]1CC[C@@]2(CC(O)CO2)[C@H]2CN1C(=O)c1c(O)c(=O)c(C(=O)NCc3c(F)cc(F)cc3F)cn12	luminescence	50 µM
Cc1cn([C@@H]2O[C@@H]3CN[C@@]4(OCCOc5ccccc5)CS(=O)(=O)O[C@@]34[C@H]2O[Si](C)(C)C(C)(C)C)c(=O)[nH]c1=O	-	4.8 µM
NCCCc1cn([C@H]2C=C[C@@H](CO)O2)c(=O)[nH]c1=O	MTT	470 µM
C[C@H]1CC[C@]2(CC(=O)N(Cc3nc4ccccc4[nH]3)O2)[C@H]2CN1C(=O)c1c(O)c(=O)c(C(=O)NCc3c(F)cc(F)cc3F)cn12	luminescence	50 µM
COc1cc2c(cc1Cc1cccc(Cl)c1F)c(=O)c(C(=O)O)cn2[C@H](CO)C(C)C	luminescence	4.409 µM
C/C(=N\Nc1nc(-c2ccc(Br)cc2)cs1)c1ccc(-n2ccnc2)cc1	MTT	87.33 µM
CCCCCCCCCCCCCCCC(=O)Oc1c2n(cc(C(=O)NCc3ccc(F)cc3F)c1=O)[C@@H]1CN(C2=O)[C@@H](C)CC[C@]12CC(OC)=NO2	luminescence	50 µM
C=C(c1ccc(C)cc1)c1c(C)c(=O)[nH]c(=O)n1COCc1ccccc1	MTT	81.53 µM
COC(=O)[C@H](C)NP(=O)(OC[C@H]1C=C[C@@H](n2cc(CC(=O)NCCCCCCNC(=O)C(F)(F)F)c(=O)[nH]c2=O)O1)Oc1ccccc1	MTT	>1 µM
Cc1cn([C@@H]2O[C@@H]3CN[C@@]4(OCC(C)(C)C)CS(=O)(=O)O[C@@]34[C@H]2O[Si](C)(C)C(C)(C)C)c(=O)[nH]c1=O	-	12 µM
CCCCCCCCCC(=O)OCOc1c2n(cc(C(=O)NCc3ccc(F)cc3F)c1=O)[C@@H]1CN(C2=O)[C@@H](C)CC[C@]12CC(OC)=NO2	luminescence	50 µM
CCC(c1cccc(C)c1)c1c(C)c(=O)[nH]c(=O)n1COCc1ccccc1	MTT	32.84 µM
COc1ccc(-c2cc(N)nc(=O)n2C)cc1OC	MTT	14.23 µM
Cc1ccccc1Sc1c(C(=O)NCCO)[nH]c2ccc(Cl)cc12	MTT	>100 µM
CN(C)c1c(N=Nc2ccc(Cl)cc2)c(N)nc(=O)n1C	MTT	28.24 µM
O=[N+]([O-])c1ccc(/C=N/Nc2nc(-c3ccc([N+](=O)[O-])cc3)cs2)cc1	MTT	73.58 µM
CCC(c1ccc(F)cc1)c1c(C)c(=O)[nH]c(=O)n1COCc1ccccc1	MTT	73.82 µM
OC[C@H]1O[C@@H](n2nnc3ccnc(Cl)c32)C[C@@H]1O	-	>368 µM
O=C(Cc1cn([C@H]2C=C[C@@H](CO)O2)c(=O)[nH]c1=O)NCCCCCCCCCCNC(=O)c1c2ccccc2nc2ccccc12	MTT	>10 µM
CCNc1c(N=Nc2ccc(-c3ccc(OC)c(OC)c3)cc2)c(N)nc(=O)n1C	MTT	23.13 µM
C=CCO[C@]12CS(=O)(=O)O[C@@]13[C@@H](CN2)O[C@@H](n1cc(C)c(=O)[nH]c1=O)[C@@H]3O[Si](C)(C)C(C)(C)C	-	24 µM
O=c1[nH]c(=O)n([C@H]2C=C[C@@H](CO)O2)cc1CCO	MTT	>100 µM
C[C@H]1CC[C@]2(CC(=O)N(Cc3ccc4c(cnn4C)c3)O2)[C@H]2CN1C(=O)c1c(O)c(=O)c(C(=O)NCc3c(F)cc(F)cc3F)cn12	luminescence	50 µM
C=C(c1ccc(Cl)cc1)c1c(C)c(=O)[nH]c(=O)n1COCc1ccccc1	MTT	34.49 µM
Cc1ccc(S(=O)(=O)c2c(C(=O)NCCO)[nH]c3ccc(Cl)cc23)c(C)c1	MTT	>100 µM
Nc1nccc2c1ncn2[C@@H]1O[C@H](CO)[C@@H](O)[C@H]1O	-	218 µM
COc1ccc(CN2O[C@@]3(CC[C@H](C)N4C[C@H]3n3cc(C(=O)NCc5c(F)cc(F)cc5F)c(=O)c(O)c3C4=O)CC2=O)cc1	luminescence	50 µM
Cc1cc(C)cc(Sc2c(C(=O)NNCCO)[nH]c3ccc(Cl)cc23)c1	MTT	45 µM
CCCCCOC(=O)OCOc1c2n(cc(C(=O)NCc3ccc(F)cc3F)c1=O)[C@@H]1CN(C2=O)[C@@H](C)CC[C@]12CC(OC)=NO2	luminescence	50 µM
C[C@H]1CC[C@]2(CC(=O)N([C@@H](C)c3ccccc3)O2)[C@H]2CN1C(=O)c1c(O)c(=O)c(C(=O)NCc3c(F)cc(F)cc3F)cn12	luminescence	50 µM
Cc1cccc(C(C)c2c(C)c(=O)[nH]c(=O)n2COCc2ccccc2)c1	MTT	>343 µM
C[C@H]1CC[C@]2(CNC(=O)C2)[C@H]2CN1C(=O)c1c(O)c(=O)c(C(=O)NCc3c(F)cc(F)cc3F)cn12	luminescence	50 µM
C/C(=N\Nc1nc(-c2ccc(C#N)cc2)cs1)c1ccc(-n2ccnc2)cc1	MTT	73.95 µM
O=C(NCCCc1cn([C@H]2C=C[C@@H](CO)O2)c(=O)[nH]c1=O)C(F)(F)F	MTT	>100 µM
COc1ccc(C(C)c2c(C(C)C)c(=O)[nH]c(=O)n2COCc2ccccc2)cc1	MTT	33.28 µM

Again, the opening 4 rows:

structure | read by | result
Oc1ccccc1/C=N/Nc1nc(-c2ccc(Br)cc2)cs1 | MTT | 48.7 µM
Cn1c(N(Cc2ccccc2)Cc2ccccc2)c(N=Nc2ccc(Cl)cc2)c(N)nc1=O | MTT | 78.59 µM
Cc1cccc(C(C)c2c(C(C)C)c(=O)[nH]c(=O)n2COCc2ccccc2)c1 | MTT | 34.3 µM
Cc1cn([C@H]2C[C@H](N=[N+]=[N-])[C@@H](CO)O2)c(=O)[nH]c1=O | MTT | >1 µM

Lines come from different laboratories, so protocols vary. An empty or dashed field is not shown.